Test results published in article PMC8341946, “Wheat pathogen Zymoseptoria tritici N-myristoyltransferase inhibitors: on-target antifungal activity and an unusual metabolic defense mechanism” (RSC Chemical Biology, 2020).

The chains behind the UniProt entries cited, without tags or fusion partners. Where a name states a change or a piece, a line headed by the entry shows the natural chain unless it says otherwise. Residues count along the entry.
UniProt F9XBB7, 436-871 limits assumed, stated change not applied: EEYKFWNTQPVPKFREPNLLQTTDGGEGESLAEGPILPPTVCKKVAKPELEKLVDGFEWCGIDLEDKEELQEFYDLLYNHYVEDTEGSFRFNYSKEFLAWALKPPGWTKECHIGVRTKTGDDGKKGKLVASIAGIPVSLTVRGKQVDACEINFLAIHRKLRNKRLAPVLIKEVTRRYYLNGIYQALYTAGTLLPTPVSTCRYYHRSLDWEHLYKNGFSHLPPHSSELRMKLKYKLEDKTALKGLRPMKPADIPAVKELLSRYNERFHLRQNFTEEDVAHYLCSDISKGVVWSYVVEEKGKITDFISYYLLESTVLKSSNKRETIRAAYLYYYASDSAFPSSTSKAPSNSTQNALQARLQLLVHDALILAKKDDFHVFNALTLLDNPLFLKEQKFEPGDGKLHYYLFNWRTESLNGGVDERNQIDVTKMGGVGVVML

Key:
[1] = biological target: ZtNMTΔ99 (Zymoseptoria tritici, UniProt F9XBB7); assay: ZtNMT IC50 assay (CPM, enzymatic); format: biochemical; conditions: Table S1
[2] = test system: Z. tritici; assay: Anti-proliferative EC50 assay (MTS viability); conditions: Table S1

SMILES: c1cnc(OC2CCNCC2)c(-c2nc(Cc3cccc4ncccc34)no2)c1
- IC50 [1]: 0.52 µM
- EC50 [2]: 160 µM
